Measured values from several laboratories, pooled; numbers as filed in NIAID ChemDB.

Common to all: growth or infection tests; agent: HIV-1; cell line: H9; endpoint: EC50

Rows are shuffled and stem from different studies. ECn: concentration that inhibits the pathogen or its effect by n%. An empty or dashed field is not shown.

compound,strain,method,setting,value
CCOC(=O)c1cc(C(=O)c2ccco2)n2ccc(C(=O)NCc3ccccn3)cc12,-,p24 / antigen,-,48.7 µM
Cc1cn([C@@H]2O[C@H](CO)C[C@@H]2F)c(=O)nc1N,IIIB,antigen,-,>1000 µM
Cc1cn([C@H]2C[C@H](N=[N+]=[N-])[C@@H](CO)O2)c(=O)[nH]c1=O,IIIB,p24,-,0.0168 µM
Cc1cc2ccc3c(c2oc1=S)[C@@H](OC(=O)C12CCC(C)(C(=O)O1)C2(C)C)[C@@H](OC(=O)C12CCC(C)(C(=O)O1)C2(C)C)C(C)(C)O3,IIIB,-,-,0.0119 µM
Cc1cc2c(c3oc(=O)cc(C)c13)[C@@H](OC(=O)C13CCC(C)(C(=O)O1)C3(C)C)[C@@H](OC(=O)C13CCC(C)(C(=O)O1)C3(C)C)C(C)(C)O2,IIIB,p24,-,0.12 µM
O=P(O)(O)OP(=O)(O)OP(=O)(O)O,IIIB,p24,-,>100 µg/mL
Cc1cn([C@@H]2O[C@H](CO)[C@@H](F)[C@H]2N=[N+]=[N-])c(=O)[nH]c1=O,IIIB,antigen,-,>1000 µM
CCN(Cc1cccc(C)c1)c1nc2cc(C(=O)NC(C)CO)ccc2n1C1CCCCCC1,-,syncytia,20% FBS,>50 µM
CCOC(=O)c1cc(C(=O)c2ccccc2)n2ccc(C(=O)NCc3cccnc3)cc12,-,p24 / antigen,-,54.3 µM
COc1cc(-c2c(C)nc3c(N4CC[C@@H](NC(C)=O)C4)cc(C)nn23)cc(OC)c1OC,-,p24,-,1 µM
CCCCNC(=O)c1ccc2c(c1)nc(NCc1cccc3ccccc13)n2C1CCCCCC1,-,syncytia,2% FBS,0.6 µM
COc1ccc(-c2c(C)nc3c(N4CC[C@@H](NS(N)(=O)=O)C4)cc(C)nn23)cc1OC,-,p24,-,0.3 µM
Cc1cc2ccc3c(c2oc1=O)[C@@H](OC(=O)C12CCC(C)(C(=O)O1)C2(C)C)[C@@H](OC(=O)C12CCC(C)(C(=O)O1)C2(C)C)C(C)(C)O3,IIIB,p24,-,0.02731 µM
CC(C)[C@@H]1CC[C@]2(C(=O)O)CC[C@]3(C)[C@H](CC[C@@H]4[C@@]5(C)CC[C@H](OC(=O)CCC(=O)O)C(C)(C)[C@@H]5CC[C@]43C)[C@@H]12,IIIB,p24 / ELISA,-,1.8 µM
Cc1c(CBr)c(=O)oc2c3c(ccc12)OC(C)(C)[C@H](OC(=O)C12CCC(C)(C(=O)O1)C2(C)C)[C@@H]3OC(=O)C12CCC(C)(C(=O)O1)C2(C)C,IIIB,p24,-,0.00741 µM
COc1ccc(-c2c(C)nc3c(N4CC[C@@H](NC(C)=O)C4)ccnn23)cc1OC,-,p24,-,>1 µM
COc1cc2c(c3oc(=S)cc(C)c13)[C@@H](OC(=O)C13CCC(C)(C(=O)O1)C3(C)C)[C@@H](OC(=O)C13CCC(C)(C(=O)O1)C3(C)C)C(C)(C)O2,IIIB,-,-,1.46 µM
C[C@@H]1O[C@H]2O[C@H]3[C@@H](OC[C@@H](O)[C@@H]3O)OC(=O)[C@]34CCC(C)(C)C[C@@]3(C)C3=CC[C@@]5(C)[C@@](C)(CC[C@@H]6[C@](C)(CO)[C@@H](O[C@@H]7O[C@H](CO)[C@@H](O)[C@H](O)[C@H]7O[C@@H]7O[C@@H](C(=O)C[C@](C)(O)CC(=O)O[C@@H]1[C@@H](O[C@@H]1OC[C@@H](O)[C@H](O)[C@H]1O)[C@H]2O)[C@H](O)[C@H](O)[C@H]7O)[C@@H](O)C[C@@]65C)[C@]3(C)CC4,IIIB,absorbance,-,22.9 µg/mL
Cc1cccc(CNc2nc3cc(C(=O)NC(C)(CO)CO)ccc3n2C2CCCCCC2)c1,-,syncytia,2% FBS,0.1 µM
CCOC(=O)c1cc(C(=O)c2ccc(C(F)(F)F)cc2)n2ccc(C(=O)NCc3ccccn3)cc12,-,p24 / antigen,-,20.5 µM
Cc1cc2c(c3oc(=S)ccc13)[C@@H](OC(=O)C13CCC(C)(C(=O)O1)C3(C)C)[C@@H](OC(=O)C13CCC(C)(C(=O)O1)C3(C)C)C(C)(C)O2,IIIB,-,-,0.0199 µM
COc1ccc(-c2c(C)nc3c(N4CC[C@@H](NS(=O)(=O)c5cccs5)C4)cc(C)nn23)cc1OC,-,p24,-,0.1 µM
Cc1cc2c(c3oc(=S)cc(C)c13)[C@@H](OC(=O)C13CCC(C)(C(=O)O1)C3(C)C)[C@@H](OC(=O)C13CCC(C)(C(=O)O1)C3(C)C)C(C)(C)O2,IIIB,-,-,0.262 µM
Cc1cn([C@@H]2O[C@H](CO)[C@@H](O)[C@@H]2F)c(=O)[nH]c1=O,IIIB,antigen,-,>1000 µM
CC(CO)(CO)NC(=O)c1ccc2c(c1)nc(NCc1cccc3ccccc13)n2C1CCCCCC1,-,syncytia,20% FBS,1 µM
Cc1c(COC(N)=O)c(=O)oc2c3c(ccc12)OC(C)(C)[C@H](OC(=O)C12CCC(C)(C(=O)O1)C2(C)C)[C@@H]3OC(=O)C12CCC(C)(C(=O)O1)C2(C)C,IIIB,p24,-,0.353 µM
COc1ccc(-c2c(C)nc3c(N4CC[C@@H](O)C4)cc(C)nn23)cc1OC,-,p24,-,0.6 µM
CCOC(=O)c1cc(C(=O)NCc2cccnc2)n2ccc(C(=O)c3ccco3)cc12,-,p24 / antigen,-,55.2 µM
COc1cc2c(c3oc(=O)c(COC(C)=O)c(C)c13)[C@@H](OC(=O)C13CCC(C)(C(=O)O1)C3(C)C)[C@@H](OC(=O)C13CCC(C)(C(=O)O1)C3(C)C)C(C)(C)O2,IIIB,p24,-,1.5 µM
COc1ccc(-c2c(C)nc3c(N4CC[C@@H](NS(=O)(=O)c5ccc(C(F)(F)F)cc5)C4)cc(C)nn23)cc1OC,-,p24,-,0.2 µM
Cc1cn([C@@H]2O[C@H](CO)[C@@H](F)[C@@H]2F)c(=O)[nH]c1=O,IIIB,antigen,-,>1000 µM
CC1=CC[C@@H]([C@@H](C)[C@H]2CC[C@@]3(C)[C@@H]4C[C@@H](O)[C@H]5C(C)(C)OC(=O)C=C[C@@]56C[C@@]46CC[C@]23C)OC1=O,IIIB,p24,-,>8.6 µg/mL
COc1cc2c(c3oc(=O)c(CBr)c(C)c13)[C@@H](OC(=O)C13CCC(C)(C(=O)O1)C3(C)C)[C@@H](OC(=O)C13CCC(C)(C(=O)O1)C3(C)C)C(C)(C)O2,IIIB,p24,-,1.62 µM
Cc1cn([C@@H]2O[C@H](COC(c3ccccc3)(c3ccccc3)c3ccccc3)[C@H](O)[C@H]2N=[N+]=[N-])c(=O)[nH]c1=O,IIIB,antigen,-,>1000 µM

The last 3 rows once more:

compound	strain	method	setting	value
CC1=CC[C@@H]([C@@H](C)[C@H]2CC[C@@]3(C)[C@@H]4C[C@@H](O)[C@H]5C(C)(C)OC(=O)C=C[C@@]56C[C@@]46CC[C@]23C)OC1=O	IIIB	p24	-	>8.6 µg/mL
COc1cc2c(c3oc(=O)c(CBr)c(C)c13)[C@@H](OC(=O)C13CCC(C)(C(=O)O1)C3(C)C)[C@@H](OC(=O)C13CCC(C)(C(=O)O1)C3(C)C)C(C)(C)O2	IIIB	p24	-	1.62 µM
Cc1cn([C@@H]2O[C@H](COC(c3ccccc3)(c3ccccc3)c3ccccc3)[C@H](O)[C@H]2N=[N+]=[N-])c(=O)[nH]c1=O	IIIB	antigen	-	>1000 µM